Pooled drug test results. Numbers come from NIAID ChemDB, via PubChem.

Common to all: growth or infection tests; organism: Mycobacterium tuberculosis

Blank or dashed fields: not listed here. MIC50, MIC90 and the like: level of inhibition, or share of isolates inhibited. Inhibition is in % at the dose shown (toxicity tests: loss of growth or viability). Conditions beyond the fields shown may differ between rows. MIC bound: limit read from a one-dose screen. ECn is the concentration giving n% inhibition of infection, replication or growth.

SMILES,tested at,strain or isolate,cells,method,measure,setting,mutations,result
O=C(O)c1ccccc1C(=O)NC(Cc1cnc[nH]1)C(=O)O,12.5 µg/mL,H37Rv,,BACTEC,inhibition,,,7%
Cc1cc2c(cc1C)[n+](=O)c(C(=O)N1CCN(Cc3ccccc3)CC1)c(C)n2[O-],,H37Rv,,,MIC,,,>6.25 µg/mL
C#CCN1C(=O)c2c(C)cc(C)nc2S1(=O)=O,12.5 µg/mL,H37Rv,,,inhibition,,,0%
Cc1ccc2c(c1)[n+](=O)c(C(=O)Nc1ccccc1)c(C)n2[O-],,H37Rv,,,MIC,,,>6.25 µg/mL
CC(=O)Nc1c(C)c2ccccc2[nH]c1=O,,H37Rv,,,MIC,,,>6.25 µg/mL
COc1ccc(/C=C/C(=O)c2ccccc2F)cc1,12.5 µg/mL,H37Rv,,,inhibition,,,82%
Cc1c(Cl)[n+](=O)c2cc(Cl)ccc2n1[O-],6.25 µg/mL,H37Rv,,,inhibition,,,100%
O=C(O)C1Oc2ccccc2C1c1ccccc1,12.5 µg/mL,H37Rv,,BACTEC,inhibition,,,12%
CO[C@H]1/C=C/O[C@@]2(C)Oc3c(C)c(O)c4c(O)c(c(/C=N/OCc5ccc(Br)cc5)c(O)c4c3C2=O)NC(=O)/C(C)=C\C=C\[C@H](C)[C@H](O)[C@@H](C)[C@@H](O)[C@@H](C)[C@H](OC(C)=O)[C@@H]1C,,H37Rv,,,MIC,,,0.5 µg/mL
Cc1cc(C)c2c(n1)S(=O)(=O)N(CC(=O)c1ccccn1)C2=O,,H37Rv,,,EC50,,,>12.5 µg/mL
CN[C@@H]1[C@H](O)[C@H](NC)[C@H]2O[C@@]3(O)C(=O)C[C@@H](C)O[C@H]3O[C@@H]2[C@H]1O,,H37Rv,,,MIC,,,16 µg/mL
Cc1cc2c(cc1C)[n+](=O)c(C(=O)Nc1ccccc1)c(C)n2[O-],,H37Rv,,,MIC,,,>6.25 µg/mL
O=C1NC(Nc2ccc(Cl)cc2)=N/C1=C\c1ccccc1Cl,,H37Rv,,,MIC,,,>12.5 µg/mL
CO[C@H]1/C=C/O[C@@]2(C)Oc3c(C)c(O)c4c(O)c(c(/C=N/OCCCCOc5ccccc5)c(O)c4c3C2=O)NC(=O)/C(C)=C\C=C\[C@H](C)[C@H](O)[C@@H](C)[C@@H](O)[C@@H](C)[C@H](OC(C)=O)[C@@H]1C,,H37Rv,,,MIC,,,0.5 µg/mL
Cc1c(S(=O)(=O)c2ccccc2)[n+](=O)c2ccc(Cl)cc2n1[O-],6.25 µg/mL,H37Rv,,,inhibition,,,100%
COc1ccc(/C=C/C(=O)c2cc(C(=O)O)ccc2O)cc1,,,,,EC50,,,>12.5 µg/mL
O=c1c2ccccc2c2nc3ccccc3nc2n1C1CCCCC1,12.5 µg/mL,H37Rv,,BACTEC,inhibition,,,0%
CN[C@@H]1[C@H](O[C@H]2[C@H](O[C@H]3[C@H](O)[C@@H](O)[C@H](N=C(N)N)[C@@H](O)[C@@H]3N=C(N)N)O[C@@H](C)[C@]2(O)C=O)O[C@@H](CO)[C@H](O)[C@H]1O,,9428 (streptomycin isoniazid rifampin-R),,,MIC,,,160 µg/mL
Cc1c(C(=O)N2CCN(Cc3ccccc3)CC2)[n+](=O)c2ccccc2n1[O-],6.25 µg/mL,H37Rv,,,inhibition,,,0%
CO[C@H]1/C=C/O[C@@]2(C)Oc3c(C)c(O)c4c(O)c(c(/C=N/OC(Cc5ccccc5)C(=O)O)c(O)c4c3C2=O)NC(=O)/C(C)=C\C=C\[C@H](C)[C@H](O)[C@@H](C)[C@@H](O)[C@@H](C)[C@H](OC(C)=O)[C@@H]1C,,H37Rv,,,MIC,,,5 µg/mL
O=C1C=CC2C3C=CC(C(=O)C3=O)C2C1=O,,H37Rv,,,MIC bound,,,>6.25 µg/mL
CCCCC(CC)O/N=C/c1c2c(O)c3c(O)c(C)c4c(c3c1O)C(=O)[C@@](C)(O/C=C/[C@H](OC)[C@@H](C)[C@@H](OC(C)=O)[C@H](C)[C@H](O)[C@H](C)[C@@H](O)[C@@H](C)/C=C/C=C(/C)C(=O)N2)O4,,H37Rv,,,MIC,,,1 µg/mL
Cc1cc(/C=C2\SC(=S)NC2=O)c(C)n1-c1ccccc1,6.25 µg/mL,,,resazurin,inhibition,,,33%
Nc1c(-c2ccccc2)c2cc([N+](=O)[O-])ccc2[nH]c1=O,6.25 µg/mL,H37Rv,,,inhibition,,,0%
O=C(Nc1ccc(C2=NCCN2)cc1)Nc1cccc(C(=O)Nc2ccc(C3=NCCN3)cc2)c1,,H37Rv,,BACTEC,MIC bound,,,≤12.5 µg/mL
Cc1c(C(=O)Nc2ccccc2)[n+](=O)c2cc(Cl)ccc2n1[O-],,H37Rv,VERO,,MIC,,,1.56 µg/mL
CC1=NN(c2nc(N)nc(NS(=O)(=O)c3cc(C)c(Cl)cc3S)n2)C(C)(C)C1,12.5 µg/mL,H37Rv,,BACTEC,inhibition,,,75%
O=C1CC(c2ccc(Br)cc2)Oc2ccccc21,,H37Rv,,,EC50,,,>12.5 µg/mL
COc1cc(C(=O)O)c2c(c1C)OC(=O)c1c(C)cc(O)c(C=O)c1O2,,H37Rv,,BACTEC,MIC bound,,,>12.5 µg/mL
CN[C@@H]1[C@@H](O)[C@@H](O[C@@H]2[C@@H](O)[C@H](O[C@H]3O[C@H](CN)CC[C@H]3N)[C@@H](N)C[C@H]2N)OC[C@]1(C)O,,H37Rv,,,MBC,,,16 µg/mL
CC1(C)CC[C@]2(C(=O)O)CC[C@]3(C)C(=CCC4[C@@]5(C)CC[C@H](O)C(C)(C)C5CC[C@]43C)C2C1,,H37Rv (rifampicin-resistant),,,MIC,,,50 µg/mL
Cc1cc(C)c2c(n1)S(=O)(=O)N(CCO)C2=O,,H37Rv,,,MIC,,,>12.5 µg/mL
Cc1c2nc3ccccc3sc-2cc(=O)c1C,12.5 µg/mL,H37Rv,,BACTEC,inhibition,,,86%
COc1c(N2CC[C@@H](C(C)(C)N)C2)c(F)cc2c(=O)c3c(=O)[nH]sc3n(C3CC3)c12,,ATCC35801,,,MIC,,,0.06 µg/mL
C/C(NNC(=O)c1ccccc1O)=C1/C=Nc2ccccc2S1,,H37Rv,,BACTEC,MIC bound,,,>12.5 µg/mL
Cc1cccc(C(N)=Nc2nc(-c3ccccn3)cc3ccccc23)c1,,J-3113,,,MIC,,,1 µg/mL
C=C1C(=O)N[C@@H](C)C(=O)N[C@H](CC(C)C)C(=O)N[C@H](C(=O)O)[C@H](C)C(=O)N[C@H](CCCN=C(N)N)C(=O)N[C@@H](/C=C/C(C)=C/[C@H](C)[C@H](Cc2ccccc2)OC)[C@@H](C)C(=O)N[C@@H](C(=O)O)CCC(=O)N1C,,,,resazurin,MIC,,Rifampicin-resistant,>53 µM
COc1ccc(C2CC(=O)c3ccc(I)cc3O2)cc1,12.5 µg/mL,,,,inhibition,,,0%
C#CCO/N=C/c1c2c(O)c3c(O)c(C)c4c(c3c1O)C(=O)[C@@](C)(O/C=C/[C@H](OC)[C@@H](C)[C@@H](OC(C)=O)[C@H](C)[C@H](O)[C@H](C)[C@@H](O)[C@@H](C)/C=C/C=C(/C)C(=O)N2)O4,,H37Rv,,,MIC,,,0.2 µg/mL
O=[n+]1c(Sc2ccccc2)c(CBr)n([O-])c2ccccc21,,H37Rv,,,MIC,,,>6.25 µg/mL
CCOC(=O)c1ccc(NC(=O)c2cnccn2)cc1,12.5 µg/mL,H37Rv,,BACTEC,inhibition,,,79%
Cc1nc2c(-c3ccccc3)c3cc(Cl)ccc3nc2o1,,H37Rv,,,MIC,,,>6.25 µg/mL
CCN(CC)CCCN=c1cc2n(-c3ccc(Cl)c(Cl)c3)c3ccccc3nc-2cc1Nc1ccc(Cl)c(Cl)c1,,2225,,,MIC,multidrug-resistant,,0.12 µg/mL
CCOC(=O)CN1C(C(C)=O)=C(O)c2c(C)cc(C)nc2S1(=O)=O,,H37Rv,,,MIC,,,>12.5 µg/mL
NCCNC(=S)S,128 µg/mL,H37Rv,,BACTEC,inhibition,,,100%
O=C1CC(c2ccccc2)Oc2c(I)cccc21,12.5 µg/mL,,,,inhibition,,,5%
O=C1NC(NNC(=O)c2ccncc2)=N/C1=C\c1ccc(Cl)cc1,12.5 µg/mL,H37Rv,VERO,resazurin,inhibition,,,99%
Cc1ccc(S(=O)(=O)/C=C/c2ccc([N+](=O)[O-])o2)cc1,,H37Rv,VERO,resazurin,MIC,,,3.13 µg/mL
CCOC(=O)Cn1sc2nc(C)cc(C)c2c1=O,12.5 µg/mL,H37Rv,,,inhibition,,,98%
O=[n+]1c(Sc2ccccc2)c(CBr)n([O-])c2cc(Cl)ccc21,,H37Rv,,,MIC,,,6.25 µg/mL
O=C1NC(NNC(=O)c2ccncc2)=N/C1=C\c1ccccc1Cl,,Isoniazid-resistant,,,MBC,,,>100 µg/mL
C=C(C)/C=C/[C@]12C[C@H](C)[C@H]3CC[C@](C)(NC=O)[C@@H](CC[C@H]1C)[C@@H]32,32 µg/mL,H37Rv,,,inhibition,,,91%
COc1cc2cc[n+]3c(C)c4ccc(OC)c(OC)c4cc3c2cc1OC.O=C([O-])CS(=O)(=O)O,12.5 µg/mL,H37Rv,,BACTEC,inhibition,,,18%
Cc1ccc(-c2cnnc(N3CCC(c4cccc(F)c4)C3)n2)o1,,H37Rv,,resazurin,MIC,,,38.9 µM
COc1ccc(C2CC(=O)c3c(cc(OC)c(-c4c(OC)cc5c(c4OC)C(=O)CC(c4ccc(OC)cc4)O5)c3OC)O2)cc1,,,,,EC50,,,>12.5 µg/mL
COc1ccccc1N1CCN(C(=O)c2c(C)n([O-])c3cc(Cl)c(Cl)cc3[n+]2=O)CC1,,H37Rv,,,MIC,,,>6.25 µg/mL
COC(=O)[C@]1(C)CCC[C@]2(C)C3=CC(=O)[C@@]4(C(C)C)O[C@H]4[C@]3(O)CC[C@@H]12,12.5 µg/mL,H37Rv,,BACTEC,inhibition,,,26%
Cc1ccc2c(c1)[n+](=O)c(C(=O)N1CCN(c3ccc([N+](=O)[O-])cc3)CC1)c(C)n2[O-],,H37Rv,,,MIC,,,>6.25 µg/mL
Cc1cc(C)c2c(=O)n(CC(O)CN3CCCCC3)sc2n1,,H37Rv,,,EC50,,,>12.5 µg/mL
NC[C@H]1O[C@H](O[C@H]2[C@H](O)[C@@H](O[C@H]3O[C@H](CO)[C@@H](O)[C@H](N)[C@H]3O)[C@H](N)C[C@@H]2N)[C@H](N)C[C@@H]1O,,H37Rv,,,MBC,,,>64 µg/mL
CC(=O)O[C@H]1C(=O)[C@@]2(C)[C@H]([C@H](OC(=O)c3ccccc3)[C@]3(O)C[C@H](OC(=O)[C@H](O)[C@@H](NC(=O)c4ccccc4)c4ccccc4)C(C)=C1C3(C)C)[C@]1(OC(C)=O)CO[C@@H]1C[C@@H]2O,12.5 µg/mL,H37Rv,,BACTEC,inhibition,,,49%
Cc1cc(C)c2c(=O)n(CC(N)=O)sc2n1,,H37Rv,,,EC50,,,>12.5 µg/mL
COc1nc2ccc(Br)cc2cc1[C@@H](c1ccccc1)[C@@](O)(CCN(C)C)c1cccc2ccccc12,,clinical isolate MAL020148,,resazurin,MIC90,,,0.03125 µg/mL
Cc1c(C2(c3cc(Br)c(O)c(Br)c3C)OS(=O)(=O)c3ccccc32)cc(Br)c(O)c1Br,,H37Rv,,BACTEC,MIC bound,,,>12.5 µg/mL
CC(=O)C1=C(O)c2c(C)cc(C)nc2S(=O)(=O)N1CC(=O)c1ccccc1,12.5 µg/mL,H37Rv,,,inhibition,,,10%
O=C1NC(NNC(=O)c2ccncc2)=N/C1=C\c1ccc(Cl)cc1Cl,,H37Rv,,resazurin,EC50,,,>12.5 µg/mL
Cc1nc(C(N)=O)c(C(=O)O)nc1C.N,,H37Rv,,BACTEC,MIC bound,,,>12.5 µg/mL
CCCCCCCCCCCO/N=C/c1c2c(O)c3c(O)c(C)c4c(c3c1O)C(=O)[C@@](C)(O/C=C/[C@H](OC)[C@@H](C)[C@@H](OC(C)=O)[C@H](C)[C@H](O)[C@H](C)[C@@H](O)[C@@H](C)/C=C/C=C(/C)C(=O)N2)O4,,H37Rv,,,MIC,,,50 µg/mL
Cc1c(N)c(=O)[nH]c2ccccc12,6.25 µg/mL,H37Rv,,,inhibition,,,0%
COc1ccc2c(c1)OC(c1ccccc1)CC2=O,12.5 µg/mL,,,,inhibition,,,0%
Cc1nnc(N2C(=O)/C(=C/c3ccc(Cl)cc3)N=C2c2ccc(Cl)cc2)nc1/C=C/c1ccc(N(C)C)cc1,,H37Rv,,resazurin,MIC bound,,,>6.25 µg/mL
CC1COc2c(N3CCN(C)CC3)c(F)cc3c(=O)c(C(=O)O)cn1c23,,SMI12,,BACTEC,MIC,,,1 µg/mL
Cc1cc(=O)c2c(ccc3c(=O)cc(C)[nH]c32)[nH]1,,H37Rv,,BACTEC,MIC bound,,,>12.5 µg/mL
Cc1cc2c(cc1C)[n+](=O)c(C(=O)N1CCN(c3ccc([N+](=O)[O-])cc3)CC1)c(C)n2[O-],6.25 µg/mL,H37Rv,,,inhibition,,,0%
O=C1CC(c2cccc(Cl)c2)Oc2ccccc21,12.5 µg/mL,,,,inhibition,,,0%

Repeating the final 7 entries:

{"SMILES": "Cc1c(N)c(=O)[nH]c2ccccc12", "tested at": "6.25 µg/mL", "strain or isolate": "H37Rv", "measure": "inhibition", "result": "0%"}
{"SMILES": "COc1ccc2c(c1)OC(c1ccccc1)CC2=O", "tested at": "12.5 µg/mL", "measure": "inhibition", "result": "0%"}
{"SMILES": "Cc1nnc(N2C(=O)/C(=C/c3ccc(Cl)cc3)N=C2c2ccc(Cl)cc2)nc1/C=C/c1ccc(N(C)C)cc1", "strain or isolate": "H37Rv", "method": "resazurin", "measure": "MIC bound", "result": ">6.25 µg/mL"}
{"SMILES": "CC1COc2c(N3CCN(C)CC3)c(F)cc3c(=O)c(C(=O)O)cn1c23", "strain or isolate": "SMI12", "method": "BACTEC", "measure": "MIC", "result": "1 µg/mL"}
{"SMILES": "Cc1cc(=O)c2c(ccc3c(=O)cc(C)[nH]c32)[nH]1", "strain or isolate": "H37Rv", "method": "BACTEC", "measure": "MIC bound", "result": ">12.5 µg/mL"}
{"SMILES": "Cc1cc2c(cc1C)[n+](=O)c(C(=O)N1CCN(c3ccc([N+](=O)[O-])cc3)CC1)c(C)n2[O-]", "tested at": "6.25 µg/mL", "strain or isolate": "H37Rv", "measure": "inhibition", "result": "0%"}
{"SMILES": "O=C1CC(c2cccc(Cl)c2)Oc2ccccc21", "tested at": "12.5 µg/mL", "measure": "inhibition", "result": "0%"}